Results of single-concentration screens

The filed quantity is “Percent Effect” (%). The record does not define 0% and 100%; most values in the screen are far below 50% and negative numbers occur (in some assays of this library far below -100). The entries come from a sample that favours strong results.

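Whole-cell growth test on Mycobacterium tuberculosis, read after 3 days in glucose-containing 7H9 medium; the read-out is not stated. Compounds at 500 µM. The record gives no direction; compounds that gave an IC50 in retests scored well above the rest, so higher reads as more growth inhibition. Of about 18,000 compounds tested this way, about 1,400 (7.9%) reached 50% or more in at least one test.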

| compound | percent effect |
|---|---|
| `COCC(O)CN(C)Cc1c(C)cccc1C` (stereo not given) | 15.01 |
| `COCCN(Cc1cccs1)C(=O)CC1CCNC1` (stereo not given) | 65.72 |
| `CCNC(=O)CNc1ccc(Br)cc1` | 74.37 |
| `Cn1ccnc1C(O)c1ccc(F)cc1` (stereo not given) | -13.42 |
| `O=S1(=O)CC(CO)c2ccccc21` (stereo not given) | 7.987 |
| `CC1c2cccn2CCN1CC(N)=O` (stereo not given) | -21.53 |
| `COc1cccc(N2CCC(N)CC2)c1` | 61.48 |
| `CNc1nc(NCC2(CO)CCC2)ncc1Br` | 4.593 |
| `CN(CC(N)=O)Cc1cccc(C#N)c1` | 13.48 |
| `C=Cc1ccc(NC(=O)N(C)C2CCN(C)C2)cc1` (stereo not given) | 14.19 |
| `OC1CCCNCC1` (stereo not given) | 7.762 |
| `CC1(C)CCCN(C(=O)CCS(C)(=O)=O)CC1` | 35.74 |
| `COc1ccc(OCCSCC(=O)NCCC#N)cc1` | 68.26 |
| `NC(=O)c1ccc(=O)n(Cc2ccc(Br)s2)n1` | 42.88 |
| `CCOC(=O)Nc1ccc2c(c1)OCCO2` | 59.15 |
| `COCCNC(=O)C1CC(=O)N(c2ccccc2F)C1` (stereo not given) | -1.448 |
| `Nc1nnc(SCc2ccc(Cl)s2)[nH]1` | 52.16 |
| `O=C(C1CCCO1)N1CCN(c2cncc(Cl)n2)CC1` (stereo not given) | 34.97 |
| `CC(=O)Nc1ccc(C(=O)OC2CCCCC2=O)s1` (stereo not given) | 40.34 |
| `COc1cccc(CNC(=O)CCn2ccc(C)n2)c1` | 33.49 |
| `COCCNc1nc(-c2ccc(S(N)(=O)=O)cc2)cs1` | 72.41 |
| `O=C(CN1CCN(CCO)CC1)NCC(F)(F)F` | -4.26 |
| `COc1cccc(CN)n1` | 34.75 |
| `O=C(CSCc1ccccn1)N1CCCOCC1` | 7.703 |
| `Cc1ccc(C(=O)NCC(c2ccco2)N(C)C)o1` (stereo not given) | 13.06 |
| `CN(Cc1ccc(Cl)cc1)C(=O)C1CCNC1` (stereo not given) | 22.85 |
| `Nc1nc(CO)cs1` | 16.11 |
| `CN(C)c1cc(CNc2ncnc3[nH]ncc23)ccn1` | 31.52 |
| `CCc1ncc(C(=O)NCCNc2cnccn2)s1` | 24.49 |
| `CC(NC(=O)c1ccn(C2CCCC2)n1)c1ncon1` (stereo not given) | 1.906 |
| `CC(C)[C@H]1CN(CCC(=O)NC2CCCC2)C[C@@H]1N` | 12.89 |
| `c1ccc2c(c1)COC21CCCNC1` (stereo not given) | -13.53 |
| `CCNC(=O)CCc1ccc(S(=O)(=O)NC2CC2)cc1` | 36.14 |
| `CCCN1CC(NC(=O)c2cc(C(C)C)on2)CC1=O` (stereo not given) | 24.37 |
| `Cc1ccc(CNCCCOc2ccccn2)o1` | 41.35 |
| `CCCn1ncnc1C(C)NC(=O)c1ccc(N)nc1` (stereo not given) | -7.894 |
| `CS(=O)(=O)N1CCC(C(=O)NCC2CCCO2)CC1` (stereo not given) | 6.221 |
| `COc1cc(C(=O)NCC2CCC2)cc2c1OCCO2` | 58.01 |
| `CSCc1nc(CNC(=O)c2cc(C)no2)cs1` | 44.39 |
| `CCOc1cccc(CN2C(=O)CCC2=O)n1` | 20.46 |
| `COCCN(Cc1ccccn1)C(=O)CC1CCNC1` (stereo not given) | 6.96 |
| `CNCc1cn2c(n1)CCCC2` | -3.843 |
| `COc1cc(C)c(S(=O)(=O)N2C[C@@H](O)[C@@H](O)C2)cc1C` | 53.36 |
| `CC(C)C(=O)N1CCCC(c2nccn2CC(N)=O)C1` (stereo not given) | -2.696 |
| `CS(=O)(=O)CCN1CCCC(CO)(CC2CC2)C1` (stereo not given) | 17.76 |
| `COCCN(CCOC)c1ccnc(C#N)c1` | 3.868 |
| `COc1cccc([C@@H]2C[C@H]2N)c1` | 37.21 |
| `CN(C)c1cc(CO)ccn1` | -9.609 |
| `CC(C)CNC1CCS(=O)(=O)C1` (stereo not given) | 1.281 |
| `NS(=O)(=O)c1ccccc1CNC(=O)C1CCCCO1` (stereo not given) | 17.25 |
| `CCOc1cccc(NC(=O)NC(C)(C)CCO)c1` | 37.84 |
| `CC1CCCCN1CCS(=O)(=O)CCC(N)=O` (stereo not given) | 36.29 |
| `CN(C)C(=O)NCCNc1nc(-c2ccccc2)ns1` | -6.601 |
| `CCn1ccc(=O)[nH]c1=O` | 3.229 |
| `N#Cc1c/c(=N\CC2CCCO2)cc[nH]1` (stereo not given) | 5.506 |
| `CC(NS(=O)(=O)c1cccc(Br)c1)c1nc[nH]n1` (stereo not given) | 12.32 |
| `CN(C)C(CNC(=O)NCc1cc[nH]n1)c1cccs1` (stereo not given) | 19.8 |
| `COc1ccc(OCCSc2n[nH]c(N)n2)cc1` | 65.58 |
| `CC(C)NC(=O)NC(=O)C(C)N1CCOCC1` (stereo not given) | 4.952 |
| `CC(C)n1nnnc1SCCS(=O)(=O)c1ccccc1` | 55.52 |
| `CC(CNC(=O)c1cc(Br)c[nH]1)N(C)C` (stereo not given) | 4.031 |
| `FC(F)(F)COCCNCCn1cccn1` | -0.428 |
| `CC1Oc2ccc(Cl)cc2NC1=O` (stereo not given) | 4.478 |
| `CC(=O)Nc1ccc(C2=NN=C(NC(C)C)SC2)cc1` | 37.65 |
| `COc1ccc(CCN)c(OC)c1` | 85.07 |
| `CN1CCCN(c2nc3ccccc3cc2CO)CC1` | 39.32 |
| `Cn1ccnc1CN1CCC2(CC(=O)NC2=O)C1` (stereo not given) | 6.699 |
| `Cc1cnc(C(=O)NCCCc2ccccn2)cn1` | 57.77 |
| `CS(=O)(=O)c1ccc(CN)cc1C(F)(F)F` | 18.44 |
| `CCNCC(=O)NC1CCS(=O)(=O)C1` (stereo not given) | 6.137 |
| `CC(C#N)N1CCC(CNS(C)(=O)=O)CC1` (stereo not given) | 4.528 |
| `CCC(=O)NCCNc1ccc2ccccc2n1` | 31.55 |
| `CCS(=O)(=O)NCCCNS(=O)(=O)c1ccc(C)cc1` | 29.17 |
| `CNC(=O)c1cccc(NCc2c(C)noc2C)c1` | 11.88 |
| `CC(C)c1csc(C(=O)N2CCOc3ncccc32)n1` | 66.94 |
| `OCC1CCN(c2ncccc2NC2CCCC2)CC1` | -9.552 |
| `Cc1cccc2[nH]cc(CO)c12` | 24.07 |
| `NC(=O)C1CCN(S(N)(=O)=O)CC1` | 34.99 |
| `CCC1(CO)CCCN(CCn2cc(Cl)cn2)C1` (stereo not given) | 58.07 |
| `CC(=O)c1ccc(S(=O)(=O)N[C@H]2CCCNC2)cc1` | -1.354 |
| `CC(C)c1cc(C(=O)N2CC(c3ccccn3)C2)no1` | 74.92 |
| `CCc1nn2c(=O)cc(CN3CCCC3)nc2s1` | -5.634 |
| `CNC(CO)c1ccc(Cl)cc1` (stereo not given) | 8.597 |
| `Cc1ccc(NC(=O)CCn2ccc(=O)[nH]c2=O)cc1` | 1.367 |
| `CC(C)(C#N)C(=O)Nc1ccc2c(c1)NC(=O)CO2` | 12.18 |
| `COC1CCN(C(=O)Nc2ccccc2)CC1` | 25.41 |
| `O=C(NCc1ccccc1CO)Nc1nncs1` | 4.505 |
| `COc1cc(CN2CCN(C(C)=O)CC2)cc(Br)c1O` | -2.3 |
| `COCC(O)CNc1nc(CC(C)C)ns1` (stereo not given) | 28.22 |
| `Cc1ccc(C2CCCN2CCS(C)(=O)=O)s1` (stereo not given) | 61.6 |
| `CC(CO)CNC(=O)c1cnc(OC(C)C)c(Cl)c1` (stereo not given) | 38.84 |
| `CC1(C#N)CCCN(C(=O)CCc2cccnc2)C1` (stereo not given) | 20.3 |
| `CCC(CC)C(O)CNC(=O)CC1(O)CCCC1` (stereo not given) | -1.977 |
| `O=C(Cn1cncn1)Nc1cccc(F)c1` | 16.17 |
| `COc1cc(C(C)=O)ccc1OCCCN(C)C` | 25.48 |
| `CN(C)C(=O)C(C)(C)NC(=O)[C@H](O)c1ccccc1Cl` | -1.913 |

8 of the entries, repeated:

| compound | percent effect |
|---|---|
| `CC(CO)CNC(=O)c1cnc(OC(C)C)c(Cl)c1` (stereo not given) | 38.84 |
| `COCCNc1nc(-c2ccc(S(N)(=O)=O)cc2)cs1` | 72.41 |
| `CN(C)C(=O)C(C)(C)NC(=O)[C@H](O)c1ccccc1Cl` | -1.913 |
| `O=S1(=O)CC(CO)c2ccccc21` (stereo not given) | 7.987 |
| `CCC(CC)C(O)CNC(=O)CC1(O)CCCC1` (stereo not given) | -1.977 |
| `CC(C)CNC1CCS(=O)(=O)C1` (stereo not given) | 1.281 |
| `CC1(C#N)CCCN(C(=O)CCc2cccnc2)C1` (stereo not given) | 20.3 |
| `COc1cc(CN2CCN(C(C)=O)CC2)cc(Br)c1O` | -2.3 |

Measurements from “University of Dundee, Small-Polar-MMV Screening Library” (2021), ChEMBL document CHEMBL3988442.